Data on 1 compound can be found in ChEMBL document CHEMBL1143812, “A novel bis-tetrahydrofuranylurethane-containing nonpeptidic protease inhibitor (PI), GRL-98065, is potent against multiple-PI-resistant human immunodeficiency virus in vitro” (Antimicrob Agents Chemother, 2007).

The subject of this test is MT2. Put plainly: Selectivity index, ratio of CC50 for MT2 cells to EC50 for HIV1 LAI. It is filed as functional.

Consider `CC(C)CN(C[C@@H](O)[C@H](Cc1ccccc1)NC(=O)O[C@H]1CCOC1)S(=O)(=O)c1ccc(N)cc1`, for which the Ratio CC50/EC50 was over 2780.
